The target of test [1] is HA of A/Puerto Rico/8/1934 (influenza A virus A/Puerto Rico/8/1934) (UniProt P03452).
The target is the same in test [2]. As to the kind of experiment: BLI.

The Kd is the concentration at which binding is half-saturated. As a reminder, the koff is a measure of how fast the partners let go of each other. High values mean a short-lived complex, low ones a long-lived complex. Broadly, the kon is a measure of how fast the partners come together. Read a high kon as faster complex formation. In test [1], C05 V110P (antibody) came in with an HAI, antibody concentration at the endpoint titer; virus A/Puerto Rico/8/1934 of more than 100 µg/mL. In test [2], this substance showed a Kd of 42 µM, a koff of 0.51 s⁻¹ and an association rate constant (kon) of 12000 M⁻¹ s⁻¹.

Source of the values: paper PMC6358683.
